Measurements reported in PubChem BioAssay AID624099 (ICCB-Longwood, 2012).
In all, the deposit lists about 21,000 reagents; below is a part drawn at random. In the full data, 497 (2.4%) are marked active. 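Higher z means weaker E2 silencing; only reporter increases were scored, and knock-downs that hurt cell survival may mask genuine repressor factors.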

- Assay: 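Host factors E2 relies on to silence an HPV18 LCR reporter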 (primary screen)
- Cells: human C33A cervical carcinoma cells (HPV-negative) stably expressing BPV1 E2 and an HPV18 LCR luciferase reporter
- Reagent: siRNA pool against human genes, 40 nM
- Time to read-out: 72 h
- Detection: 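Per-well luciferase luminescence, z-scored on each plate against the plate mean and SD with control wells left out, then averaged across three replicate plates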
- Direction: mean z-score and z-score: higher = stronger reporter signal, weaker E2 silencing
- Rule for the call: 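Mean z ≥ 2 together with z ≥ 2 in two or more of the three replicates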

What is on record for FAM90A3?
mean z-score: 0.33; z-score, replicate A: 0.3; z-score, replicate B: 0.59; z-score, replicate C: 0.09; outcome: inactive

What did the screen give for RP9?
mean z-score: -0.4; z-score, replicate A: -0.33; z-score, replicate B: -0.4; z-score, replicate C: -0.47; outcome: inactive

For LMTK3, how do the results read?
mean z-score: 0.93; z-score, replicate A: 1.08; z-score, replicate B: 0.69; z-score, replicate C: 1.01; outcome: inactive

With ZEB1, what does the deposit list?
mean z-score: -0.37; z-score, replicate A: -0.27; z-score, replicate B: -0.45; z-score, replicate C: -0.38; outcome: inactive

For CDH20, what does the deposit list?
mean z-score: 0.21; z-score, replicate A: -0.22; z-score, replicate B: 0.59; z-score, replicate C: 0.25; outcome: inactive

What is on record for DPH2?
mean z-score: 1.96; z-score, replicate A: 1.93; z-score, replicate B: 2.08; z-score, replicate C: 1.87; outcome: inactive

Quoted from the entries so far (2 entries):
CDH20 → mean z-score = 0.21; z-score, replicate A = -0.22; z-score, replicate B = 0.59; z-score, replicate C = 0.25; outcome = inactive
DPH2 → mean z-score = 1.96; z-score, replicate A = 1.93; z-score, replicate B = 2.08; z-score, replicate C = 1.87; outcome = inactive

Further entries follow.
For ZNF771, what was measured?
mean z-score: 1.47; z-score, replicate A: 1.77; z-score, replicate B: 1.23; z-score, replicate C: 1.4; outcome: inactive

With LOC102724434, what was measured?
mean z-score: 0.55; z-score, replicate A: 0.82; z-score, replicate B: 0.52; z-score, replicate C: 0.31; outcome: inactive

What did the screen give for MYBPC2?
mean z-score: 0.76; z-score, replicate A: 0.78; z-score, replicate B: 0.74; z-score, replicate C: 0.75; outcome: inactive

For NLRP4, what was measured?
mean z-score: 2.87; z-score, replicate A: 3.22; z-score, replicate B: 3.07; z-score, replicate C: 2.32; outcome: active

For NSD2, what does the deposit list?
mean z-score: 0.61; z-score, replicate A: 0.54; z-score, replicate B: 0.35; z-score, replicate C: 0.94; outcome: inactive

For ZNF500, what does the deposit list?
mean z-score: -1.1; z-score, replicate A: -1.16; z-score, replicate B: -1.08; z-score, replicate C: -1.06; outcome: inactive

With APOC3, how do the results read?
mean z-score: 0.84; z-score, replicate A: 0.66; z-score, replicate B: 0.78; z-score, replicate C: 1.08; outcome: inactive

Which result is listed for RMND1?
mean z-score: 0.15; z-score, replicate A: 0.35; z-score, replicate B: 0.19; z-score, replicate C: -0.1; outcome: inactive
